Values from PubChem BioAssay AID504761 (Drosophila RNAi Screening Center, 2011)
Purpose: 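Insect host genes that dengue virus relies on to spread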 (primary screen). System: D.Mel-2 cells from Drosophila. Reagent: long dsRNA against Drosophila genes. Treatment: infection with dengue virus type 2; dose and infection time not stated. Detection: 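Cells stained for dengue envelope protein and imaged; percent of infected cells per well on duplicate plates, ranked by infection, with stained nuclei counted for cell number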. Direction: infection score: higher = more virus-infected cells; cell count: higher = more cells in the well. Hit rule: 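Low infection ranks in the two replicates (chance level up to 0.065) followed by a retest with a 1.5-fold or larger significant decrease, p below 0.05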. Calls: active = confirmed: knock-down lowers infection; inactive = not picked or not confirmed.
The deposit covers about 22,000 reagents; below is a random part of those with a known target gene and a result. Over the whole deposit, 116 (0.52%) were called active. 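Calls depend on retest data that are not deposited; infection was ranked per plate without normalising between plates; the unit of the infection score is not given.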 The raw values are shown without normalisation. A plus sign joins genes that one reagent is predicted to hit. The record does not give: the amount of reagent, the time to read-out.

ND-MWFE [DRSC06364]
- infection score, replicate 1: 11
- infection score, replicate 2: 5.59
- cell count, replicate 1: 5686
- cell count, replicate 2: 6902
- Call: inactive

CG14982 [DRSC23022]
- infection score, replicate 1: 3.81
- infection score, replicate 2: 1.38
- cell count, replicate 1: 6065
- cell count, replicate 2: 6825
- Call: inactive

Atf6 [DRSC04743]
- infection score, replicate 1: 1.98
- infection score, replicate 2: 1.41
- cell count, replicate 1: 6661
- cell count, replicate 2: 6752
- Call: inactive

Atf6 [DRSC04889]
- infection score, replicate 1: 14.4
- cell count, replicate 1: 6269
- cell count, replicate 2: 373
- Call: inactive

Atf6 [DRSC28936]
- infection score, replicate 1: 19.8
- infection score, replicate 2: 5.94
- cell count, replicate 1: 4087
- cell count, replicate 2: 1834
- Call: inactive

Glo1 [DRSC06657]
- infection score, replicate 1: 2.48
- infection score, replicate 2: 9.38
- cell count, replicate 1: 6570
- cell count, replicate 2: 6398
- Call: inactive

BORCS7 + CG13430 [DRSC06392]
- infection score, replicate 1: 6.67
- infection score, replicate 2: 12.2
- cell count, replicate 1: 6234
- cell count, replicate 2: 5072
- Call: inactive

BORCS7 + CG13430 [DRSC06707]
- infection score, replicate 1: 3.49
- infection score, replicate 2: 2.79
- cell count, replicate 1: 6328
- cell count, replicate 2: 6353
- Call: inactive

Only “cell count, replicate 2”, for 2 of the entries above:
Atf6 [DRSC28936]	1834
Glo1 [DRSC06657]	6398

Additional records follow.
CysRS-m [DRSC07129]
- infection score, replicate 1: 37.5
- infection score, replicate 2: 40.6
- cell count, replicate 1: 4936
- cell count, replicate 2: 1888
- Call: inactive

CG12011 [DRSC08219]
- infection score, replicate 1: 7.42
- infection score, replicate 2: 3.55
- cell count, replicate 1: 5594
- cell count, replicate 2: 6741
- Call: inactive

CG12011 [DRSC27315]
- infection score, replicate 1: 28.2
- infection score, replicate 2: 15.9
- cell count, replicate 1: 5686
- cell count, replicate 2: 4018
- Call: inactive

Efa6 [DRSC13569]
- infection score, replicate 1: 0.49
- infection score, replicate 2: 0.83
- cell count, replicate 1: 6597
- cell count, replicate 2: 6376
- Call: inactive

Efa6 [DRSC16141]
- cell count, replicate 1: 398
- cell count, replicate 2: 321
- Call: inactive

Efa6 [DRSC29705]
- infection score, replicate 1: 22.8
- infection score, replicate 2: 12.3
- cell count, replicate 1: 5516
- cell count, replicate 2: 6041
- Call: inactive
